Measured values from several laboratories, pooled; numbers as filed in NIAID ChemDB.

All rows: host cell toxicity; cells: MT-2; measure: CC50

CCn: concentration that lowers growth or viability of the cells by n%.

compound | read by | result
Cn1nc(NS(C)(=O)=O)c2c(Cl)ccc(-n3c([C@H](Cc4cc(F)cc(F)c4)NC(=O)Cn4nc(C(F)F)c5c4C(F)(F)[C@@H]4C[C@H]54)nc4nc(-c5nccc(C(F)F)n5)ccc4c3=O)c21 | XTT | >0.5 µM
Cn1nc(NS(C)(=O)=O)c2c(Cl)ccc(-n3c([C@@H](Cc4cc(F)cc(F)c4)NC(=O)Cn4nc(C(F)F)c5c4C(F)(F)[C@@H]4C[C@H]54)nccc3=O)c21 | XTT | >1 µM
O=C(CCCCC(=O)Nc1sc2c(c1C(=O)O)CCCC2)Nc1sc2c(c1C(=O)O)CCCC2 | XTT | >100 µM
Nc1nc(N)c2ncn([C@H]3C=C[C@@H](CO)C3)c2n1 | - | >125 µg/mL
[N-]=[N+]=NC[C@H]1O[C@@H](n2cnc3c(N)ncnc32)[C@H](O)[C@@H]1CC(=O)O | neutral red | 175 µM
Cc1c(CCO)c(C2CC2)nn1CC(=O)N[C@@H](Cc1ccccc1)C(=O)N(C)c1ccc2nccnc2c1 | ATP | >20 µM
O=C(O)c1cc(-n2cccc2)ccc1Cl | XTT | 335.7 µM
Cc1c(CCO)c(C2CC2)nn1CC(=O)N[C@@H](Cc1ccccc1)C(=O)N(C)c1cnc2ccccc2c1 | ATP | >20 µM
COc1cc(CCNC(=S)Nc2ccc(Cl)cn2)cc(OC)c1OC | MTT | >100 µM
CC(C)CN(C[C@@H](O)[C@H](Cc1ccccc1)NC(=O)O[C@H]1CO[C@H]2OCC[C@H]21)S(=O)(=O)c1ccc2c(c1)OCO2 | MTT | 35.7 µM
Cn1nc(NS(C)(=O)=O)c2c(Cl)ccc(-n3c(C(Cc4cc(F)cc(F)c4)NC(=O)Cn4nc(C(F)F)c5c4C(F)(F)[C@@H]4C[C@H]54)nccc3=O)c21 | XTT | >1 µM
Cc1c(CCO)c(C(C)C)nn1CC(=O)N[C@@H](Cc1ccccc1)C(=O)N(C)c1ccc2c(c1)OCO2 | ATP | >20 µM
CC(=O)Oc1c(OCC(=O)c2ccc(Br)cc2)ccc2c1C(=O)c1ccccc1C2=O | MTT | >100 µM
Cc1cccc(Cl)c1CN1CCc2cc(-c3c(C)nc(C)c([C@H](OC(C)(C)C)C(=O)O)c3N3CCC(C)(C)CC3)ccc2C1 | MTT | ≥24 µM
Cn1nc(NS(C)(=O)=O)c2c(Cl)ccc(-n3c([C@H](Cc4cc(F)cc(F)c4)NC(=O)Cn4nc(C5CC5)c5c4C(F)(F)[C@@H]4C[C@H]54)nc4nc(OCCC(C)(F)F)ccc4c3=O)c21 | XTT | >0.1 µM
Nc1nc(NC2CC2)c2ncn([C@H]3CO[C@@H](CO)O3)c2n1 | MTT | >250 µM
N#Cc1ccc(Oc2cc(Cl)ccc2Cl)c(OCCn2ccc(=O)[nH]c2=O)c1 | - | 59 µM
Nc1nc2c(ncn2[C@H]2CC[C@@H](CO)C2)c(=O)[nH]1 | - | >100 µg/mL
CC(C)C[C@H](N)C(=O)N[C@@H](Cc1ccccc1)C(=O)N[C@H](C(=O)N[C@@H](Cc1ccccc1)C(=O)O)C(C)C | - | 17.29 µg/mL
C=Cc1c(C)c2cc3[nH]c(cc4nc(cc5nc(cc1[nH]2)C(C)=C5CCC(=O)O)C(CCC(=O)O)=C4C)c(C)c3C=C | - | 8.9 µg/mL
CCOc1cccc(-c2cc(C(=O)N/N=C/c3ccc(OC)c(CN4CCOCC4)c3)c3ccccc3n2)c1 | XTT | 40.91 µM
C[C@@H](C(=O)N[C@@H](Cc1cc(F)cc(F)c1)c1nc2cc(-c3ccccc3F)ccc2c(=O)n1-c1ccc(Cl)c2c(NS(=O)(=O)C3CC3)nn(CC(F)F)c12)n1ccc(C2CC2)n1 | XTT | >0.5 µM
N#C/C=C/c1cccc(Oc2ccc(C#N)cc2OCCn2ccc(=O)[nH]c2=O)c1 | - | >90 µM
C[C@@H](NC(=O)C(=O)Nc1ccc(Cl)cc1)[C@H](c1ccccc1)N1CCOCC1 | XTT | >99.6 µM
O=c1nccc(NC(=S)NCCc2ccccc2F)[nH]1 | MTT | >100 µM
COc1cc(C)c(/C=C/C2NCCc3cc(OCc4ccccc4)c(OC)cc32)cc1OCc1ccccc1 | fluorescence | 1.4 µM
Nc1nc(=O)n([C@H]2O[C@@H](CO)C=C2F)cc1F | - | >100 µM
CSCC[C@@H](NC(=O)[C@@H](CC(C)C)NC(=O)[C@@H](Cc1ccccc1)NC(=O)[C@H](NC(=O)[C@@H](Cc1ccccc1)NC(=O)[C@H]1CCCN1)C(C)C)C(=O)O | - | 0.99 µg/mL
Cc1ccccc1S(=O)(=O)NC(=O)NC(Cc1ccccc1)c1ncn(C)c1-c1ccc2c(c1)CCO2 | XTT / absorbance | >100 µM
CC(C)=CCOc1cc(NC(=S)c2ccoc2C)ccc1Cl | - | >30 µM
N#C/C=C/c1cc(Cl)cc(Oc2ccccc2OCCn2ccc(=O)[nH]c2=O)c1 | - | 11 µM
Cc1cc(NC(=O)C(=O)NCCN2CCN(C(=O)c3ccccc3F)CC2)ccc1Br | XTT | 71.46 µM
COc1ccc(OC)c(CCNC(=S)Nc2ccccn2)c1 | MTT | 84.7 µM
Cn1nc(NS(C)(=O)=O)c2c(Cl)ccc(-n3c([C@H](Cc4cc(F)cc(F)c4)NC(=O)Cn4nc(C(F)F)c5c4C(F)(F)[C@@H]4C[C@H]54)nc4cc(-c5cnn(C(F)F)c5)ccc4c3=O)c21 | XTT | >0.5 µM
COC(=O)c1cc(C(=O)OC)cc(N(C(=O)Nc2ccc(Cl)c(Cl)c2)C(C)c2nc3ccccc3c(=O)n2Cc2ccccc2)c1 | - | 0.67 µg/mL
C=C1CC[C@@H](OC(C)=O)[C@@]2(C)C[C@@H](OC(C)=O)C3=C(C(C)C)CC[C@]3(C)C[C@]12O | MTT | 1910 µM
Cn1nc(NS(C)(=O)=O)c2c(Cl)ccc(-n3c([C@H](Cc4cc(F)cc(F)c4)NC(=O)Cn4nc(C(F)F)c5c4C(F)(F)[C@@H]4C[C@H]54)nc4nc(-c5cnccn5)ccc4c3=O)c21 | XTT | >0.5 µM
CC(=O)NS(=O)(=O)c1ccc(NC(=S)NCCc2ccccc2F)cc1 | MTT | 37 µM
Cc1ccccc1S(=O)(=O)NC(=O)N[C@@H](Cc1cc(F)cc(F)c1)c1ncccc1-c1ccnc(F)c1C | XTT / absorbance | 72 µM
Cc1c(CCO)c(C2CC2)nn1C(C)(C)C(=O)N[C@@H](Cc1ccccc1)C(=O)N(C)c1ccc2c(c1)OCO2 | ATP | >20 µM
Cn1nc(NS(C)(=O)=O)c2c(Cl)ccc(-n3c([C@H](Cc4cc(F)cc(F)c4)NC(=O)Cn4nc(C5CC5)c5c4C(F)(F)[C@H]4C[C@@H]54)nc4nc(OCCC(C)(F)F)ccc4c3=O)c21 | XTT | >0.1 µM
COC(=O)Nc1ccc(-n2ccnc2[C@H](Cc2ccccc2)NC(=O)NS(=O)(=O)c2ccccc2F)cc1 | XTT / absorbance | >100 µM
CC(C)CN(C[C@@H](O)[C@H](Cc1ccccc1)NC(=O)O[C@H]1CO[C@H]2OCC[C@H]21)C1(C)C(=O)Nc2ccccc21 | - | >10 µM
O=c1nccc(NC(=S)NCCc2ccccc2)[nH]1 | MTT | >100 µM
CNC(=O)NC[C@H]1O[C@@H](n2cnc3c(NC(=O)Nc4ccccc4)ncnc32)[C@H](O)[C@@H]1CC(=O)O | neutral red | 385 µM
Cc1ccc(-c2c([C@H](OC(C)(C)C)C(=O)O)c(C)nc3ccccc23)cc1C | - | >100 µM
Nc1nc2c(ncn2[C@H]2C=C[C@@H](CO)C2)c(=O)[nH]1 | - | >100 µM
O=C(Oc1ccc2c(c1OC(=O)c1ccccc1)C(=O)c1ccccc1C2=O)c1ccccc1 | MTT | >100 µM
Cn1nc(NS(C)(=O)=O)c2c(Cl)ccc(-n3c([C@H](Cc4cc(F)cc(F)c4)NC(=O)Cn4nc(C(F)F)c5c4C(F)(F)[C@@H]4C[C@H]54)nc4nc(-c5nccc(C(F)(F)F)n5)ccc4c3=O)c21 | XTT | >0.5 µM
COc1cc(CCNC(=S)Nc2cccc(C)n2)cc(OC)c1OC | MTT | 81 µM
CSCC[C@H](N)C(=O)N[C@@H](CC(C)C)C(=O)N[C@@H](Cc1ccccc1)C(=O)N[C@H](C(=O)N[C@@H](Cc1ccccc1)C(=O)O)C(C)C | - | 59.04 µg/mL
COc1ccc(-c2cc(C(=O)Nc3ccc(S(=O)(=O)Nc4cc(C)nc(C)n4)cc3)c3ccccc3n2)cc1 | XTT | 41.81 µM

A second listing of 3 rows from above:

| compound | read by | result |
|---|---|---|
| Cn1nc(NS(C)(=O)=O)c2c(Cl)ccc(-n3c([C@H](Cc4cc(F)cc(F)c4)NC(=O)Cn4nc(C(F)F)c5c4C(F)(F)[C@@H]4C[C@H]54)nc4nc(-c5nccc(C(F)F)n5)ccc4c3=O)c21 | XTT | >0.5 µM |
| C=Cc1c(C)c2cc3[nH]c(cc4nc(cc5nc(cc1[nH]2)C(C)=C5CCC(=O)O)C(CCC(=O)O)=C4C)c(C)c3C=C | - | 8.9 µg/mL |
| C[C@@H](NC(=O)C(=O)Nc1ccc(Cl)cc1)[C@H](c1ccccc1)N1CCOCC1 | XTT | >99.6 µM |

An empty or dashed field is not shown. Rows are shuffled and stem from different studies.